Pooled drug test results. Numbers come from NIAID ChemDB, via PubChem.

Shared fields: growth or infection tests; species: Hepatitis C virus; method: replicon; read-out: EC50

Lines come from different laboratories, so protocols vary. An empty or dashed field is not shown. ECn: concentration that inhibits the pathogen or its effect by n%.

smiles	strain or isolate	setting	cell line	result
N#Cc1cn([C@@H]2O[C@H](CO)[C@@H](O)[C@H]2O)c2ncnc(NCc3ccccn3)c12	-	-	-	5 µM
CCC[C@H](NC(=O)C1CC(Oc2cc(-c3ccccc3)nc3cc(OC)ccc23)CN1C(=O)[C@@H](NC(=O)OC(C)(C)C)C(C)C)C(=O)NS(=O)(=O)c1ccccc1	-	-	Huh7	>10 µM
CCCCN(CC(=O)NC(C)(C)CC(C)C)C(=O)CCN1C(=O)[C@H](C)C2CC[C@H](C)C3CCC4(C)OO[C@]32C1O4	-	-	Huh 5-2	5 µM
CS(=O)(=O)Nc1ccc2c(c1)S(=O)(=O)N/C(=c1\c(=O)c3cccn3n(Cc3ccc(F)c(Cl)c3)c1=O)N2	1b	-	HCV Huh-7/C24	0.022 µM
C=CCN(CC(=O)NCS(=O)(=O)c1ccc(C)cc1)C(=O)CCN1C(=O)[C@H](C)C2CC[C@H](C)C3CC[C@]4(C)OO[C@]32C1O4	-	-	Huh 5-2	4 µM
CN(C)c1ncnc2c1c(C(=N)N)cn2[C@@H]1O[C@H](CO)[C@@H](O)[C@H]1O	-	-	-	2.5 µM
C=C[C@@H]1C[C@]1(NC(=O)[C@@H]1C[C@@H](c2csc(-c3ccccc3OC)n2)CN1C(=O)C(NC(=O)OC1CCCC1)C(C)(C)C)C(=O)NS(=O)(=O)C1CC1	-	-	Huh7 cells	0.037 µM
CCCCN(CC(=O)NCS(=O)(=O)c1ccc(C)cc1)C(=O)CCN1C(=O)[C@H](C)C2CC[C@H](C)C3CC[C@]4(C)OO[C@]32C1O4	-	-	Huh 5-2	>70 µM
Cn1c(-c2ccccn2)c(C2CCCCC2)c2ccc(C(=O)N[C@@]3(C(=O)Nc4ccc(-c5cncnc5)cc4)CCNC3)cc21	-	genotype 1b	-	0.172 µM
CN(C)c1ncnc2c1c(C#N)cn2[C@@H]1O[C@H](CO)[C@@H](O)[C@H]1O	-	-	-	3 µM
CCC(C)[C@H](NCC(=O)c1ccccc1)C(=O)Nc1ccc(C2SC(=Nc3cccc(F)c3)N(Cc3ccco3)C2=O)cc1	genotype 1	genotype 1b	-	6 µM
Cn1c(-c2ccccn2)c(C2CCCCC2)c2ccc(C(=O)NC(C)(C)C(=O)Nc3ccc(NC(=O)C(N)=O)cc3)cc21	-	genotype 1b	-	0.18 µM
Cc1ccc(S(=O)(=O)CNC(=O)CN(C(=O)CCN2C(=O)[C@H](C)C3CC[C@H](C)C4CC[C@]5(C)OO[C@]43C2O5)C(C)(C)C)cc1	-	-	Huh 5-2	6 µM
O=c1/c(=C2/Nc3ccc(C4CCCS4(=O)=O)cc3S(=O)(=O)N2)c(=O)n(Cc2ccc(F)cc2)n2cccc12	1b	-	HCV Huh-7/C24	0.38 µM
C=C1CCOC1=O	-	-	Huh7	>10 µM
C=CC1CC1(NC(=O)C1CC(Oc2cc(-c3ccccc3)nc3cc(OC)ccc23)CN1C(=O)[C@@H](NC(=O)OC(C)(C)C)C(C)C)C(=O)NS(=O)(=O)c1ccccc1	-	-	Huh7	0.04 µM
CC(C)Nc1ncnc2c1c(C#N)cn2[C@@H]1O[C@H](CO)[C@@H](O)[C@H]1O	-	-	-	8 µM
CCCC(NC(=O)[C@@H]1C2CCC(F)(F)C2CN1C(=O)[C@@H](NC(=O)[C@@H](NC(=O)c1cnccn1)C(C)C)C(C)C)C(=O)C(=O)NC1CC1	-	-	Huh7	<25 µM
C[C@@H]1C(=O)O[C@@H]2C3=CC(=O)C4OC4[C@]3(C)CC[C@@H]12	-	-	Huh7	>10 µM
CCN(CC(=O)NCc1ccccc1)C(=O)CCN1C(=O)[C@H](C)C2CC[C@H](C)C3CC[C@]4(C)OO[C@]32C1O4	-	-	Huh 5-2	31 µM
COc1ccc2c(OC3CC(C(=O)NC4(C(=O)NS(=O)(=O)c5ccccc5)CC4)N(C(=O)[C@@H](NC(=O)OC(C)(C)C)C(C)C)C3)cc(-c3ccccc3)nc2c1	-	-	Huh7	1.1 µM
CCCC(NC(=O)[C@@H]1C2CCCC2CN1C(=O)[C@@H](NC(=O)[C@H](CC1CCCCC1)NC(=O)c1cnccn1)C(C)(C)C)C(=O)C(=O)NC1CC1	-	-	Huh7	0.55 µM
Cn1c(-c2ccccn2)c(C2CCCCC2)c2ccc(C(=O)NC3(C(=O)Nc4ccc(-c5cnc(N)nc5)cc4)CCC3)cc21	-	genotype 1b	-	0.218 µM
C[C@H]1CCC2[C@@H](C)C(=O)N(CCC(=O)N(C)CC(=O)NCc3ccccc3)C3O[C@]4(C)CCC1[C@@]23OO4	-	-	Huh 5-2	11 µM
C[C@@H]1CC[C@H]2[C@@H](C)C(=O)O[C@@H]3OC4(C)CC[C@@H]1[C@]32OO4	-	-	Huh 5-2	78 µM
CC(C)(C)OC[C@H](NCC(=O)c1ccccc1)C(=O)Nc1ccc(C2SC(=Nc3cccc(F)c3)N(Cc3ccco3)C2=O)cc1	genotype 1	genotype 1b	-	>50 µM
CCC[C@H](NC(=O)[C@@H]1C2CCCC2CN1C(=O)[C@@H](NC(=O)[C@@H](NC(=O)c1cnccn1)C(C)(C)C)C(C)(C)C)C(=O)C(=O)NC1CC1	-	-	Huh7	1 µM
CN1CCC(NC(=O)c2ccc3c(C4CCCCC4)c(-c4ccccn4)n(C)c3c2)(C(=O)Nc2ccc(/C=C/C(=O)O)cc2)CC1	-	genotype 1b	-	0.065 µM
C/C1=C\CC[C@@]2(C)O[C@H]2[C@H]2OC(=O)[C@@H](CN3CCC[C@H]3C(=O)O)[C@@H]2CC1	-	-	Huh7	2.24 µM
NC(=O)c1cn([C@@H]2O[C@H](CO)[C@@H](O)[C@H]2O)c2nc[nH]c(=O)c12	-	-	-	4 µM
C[C@@H]1C(=O)O[C@H]2[C@H]1CC[C@@]1(C)C=CC(=O)[C@@]3(C)O[C@@]213	-	-	Huh7	>10 µM
CNc1ncnc2c1c(C#N)cn2[C@@H]1O[C@H](CO)[C@@H](O)[C@H]1O	-	-	-	11 µM
CCC[C@H](NC(=O)[C@@H]1C2CCCC2CN1C(=O)[C@@H](NC(=O)[C@@H](NC(=O)c1cnccn1)C1CCCCC1)C(C)(C)C)C(=O)C(=O)N[C@@H](C)CC	-	-	Huh7	0.89 µM
NC(=S)c1cn([C@@H]2O[C@H](CO)[C@@H](O)[C@H]2O)c2nc[nH]c(=O)c12	-	-	-	25 µM
COCCN(CC(=O)NCc1ccccc1)C(=O)CCN1C(=O)[C@H](C)C2CC[C@H](C)C3CC[C@]4(C)OO[C@]32C1O4	-	-	Huh 5-2	6 µM
CC(C)[C@H](NC(=O)c1cnccn1)C(=O)N[C@H](C(=O)N1CC2CCCC2[C@H]1C(=O)NC(CC(F)F)C(=O)C(=O)NC1CC1)C(C)C	-	-	Huh7	3.78 µM
C[C@@]1(O)[C@H](O)[C@@H](CO)O[C@H]1c1c[nH]c2c(N)ncnc12	-	24 h	-	>100 µM
CN(c1ccc2c(c1)S(=O)(=O)N/C(=c1\c(=O)c3cccn3n(Cc3ccc(F)cc3)c1=O)N2)S(C)(=O)=O	1b	-	HCV Huh-7/C24	0.33 µM
CCN(CC)C1CCN(C(=O)Cn2c(-c3ccc(Cl)cc3)c(C3CCCCC3)c3ccc(C(=O)O)cc32)CC1	-	-	Huh7	0.15 µM
C[C@@]1(O)[C@H](O)[C@@H](CO)O[C@H]1n1ccc2c(N)ncnc21	-	24 h	-	0.3 µM

The last 3 rows once more:

smiles | strain or isolate | setting | cell line | result
CN(c1ccc2c(c1)S(=O)(=O)N/C(=c1\c(=O)c3cccn3n(Cc3ccc(F)cc3)c1=O)N2)S(C)(=O)=O | 1b | - | HCV Huh-7/C24 | 0.33 µM
CCN(CC)C1CCN(C(=O)Cn2c(-c3ccc(Cl)cc3)c(C3CCCCC3)c3ccc(C(=O)O)cc32)CC1 | - | - | Huh7 | 0.15 µM
C[C@@]1(O)[C@H](O)[C@@H](CO)O[C@H]1n1ccc2c(N)ncnc21 | - | 24 h | - | 0.3 µM